Laboratory results: PubChem BioAssay AID504761 (Drosophila RNAi Screening Center, 2011)
The deposit covers about 22,000 reagents; below is a random part of those that have a named target and a result. Over the whole deposit, 116 (0.52%) are marked active. 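Calls depend on retest data that are not deposited; infection was ranked per plate without normalising between plates; the unit of the infection score is not given.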 Raw values are not corrected between plates. Further read-outs or replicates are left out here. Reagent sequences are not shown. Not stated in the record: the amount of reagent, the time to read-out.

- Test: 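Genome-wide fly cell screen for genes dengue virus requires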 (primary screen)
- Cells: D.Mel-2 cells from Drosophila
- Knock-down reagent: long dsRNA against Drosophila genes
- Treatment: infection with dengue virus type 2; dose and infection time not stated
- Read-out: 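Cells stained for dengue envelope protein and imaged; percent of infected cells per well on duplicate plates, ranked by infection, with stained nuclei counted for cell number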
- Scale: infection score: higher = more virus-infected cells; cell count: higher = more cells in the well
- Call rule: 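Very low infection ranking in both replicate wells (chance probability at most 0.065), then a retest showing infection dropped 1.5-fold or more at p below 0.05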
- Meaning of the calls: active = confirmed: knock-down lowers infection; inactive = not picked or not confirmed

Depletion of CG18518 (GeneID 34932) [DRSC01509] came out at: infection score, replicate 1 = 1.69; cell count, replicate 1 = 5399; inactive.
Cip4 (GeneID 38534) [DRSC08469] scored infection score, replicate 1 = 5.88; cell count, replicate 1 = 6310; inactive.
Cip4 (GeneID 38534) [DRSC21740] scored infection score, replicate 1 = 16.4; cell count, replicate 1 = 4096; inactive.
With knock-down of CG31431 (GeneID 326138) [DRSC14589] the results were infection score, replicate 1 = 1.22; cell count, replicate 1 = 6739; inactive.
CG4467 (GeneID 42747) [DRSC15585] showed infection score, replicate 1 = 13.2; cell count, replicate 1 = 6189; inactive.
Depletion of Tssk (GeneID 42233) [DRSC14784] came out at: infection score, replicate 1 = 4.84; cell count, replicate 1 = 6246; inactive.
For Tssk (GeneID 42233) [DRSC26679] the deposit lists infection score, replicate 1 = 11.5; cell count, replicate 1 = 5803; inactive.
Knock-down of CG18476 (GeneID 41404) [DRSC15281] resulted in: infection score, replicate 1 = 6.87; cell count, replicate 1 = 6633; inactive.
With knock-down of HLH54F (GeneID 37027) [DRSC07438], the record shows infection score, replicate 1 = 11.8; cell count, replicate 1 = 6624; inactive.
Bre1 (GeneID 38652) [DRSC09742] showed infection score, replicate 1 = 3.57; cell count, replicate 1 = 6999; inactive.
CG7271 (GeneID 40021) [DRSC22561] showed infection score, replicate 1 = 3.41; cell count, replicate 1 = 6572; inactive.
After knock-down of CG14383 (GeneID 41593) [DRSC14841], the record shows infection score, replicate 1 = 4.91; cell count, replicate 1 = 6838; inactive.
